Measured values as given in patent publication US20190015400A1, “Antifungal Compositions” (priority 2017, published 2019).

System: 13 Candida spp. strains (strains A-M)
Assay: MIC and checkerboard assay, azoles + antihistamines, panel
Type: cell-based
Details: total over 7 azoles and 13 strains; for cases of SYN: SYN = FICI≤0.5; for cases of pSYN: pSYN = 0.5<FICI≤0.75
Procedure: Determination of minimum inhibitory concentration (MIC) values. MIC values were recorded for all antifungals and antihistamines in order to determine the concentration range of compounds to be used in the checkerboard assays.
The MIC assays were done using the broth microdilution method as described in CLSI document M27-A3 with minor modifications. Yeast cultures were started by picking a colony from a PDA plate stored at 4° C. The colonies were grown in YEPD medium overnight at 35° C. with shaking at 200 rpm. In a 96-well plate compounds were diluted lengthwise along the plate in serial 2-fold dilutions in the RPMI 1640 medium. The yeast cultures were diluted in RPMI 1640 medium to an OD600 within the range of 0.12 and 0.15 (˜1×10^6 cells/mL). The fungal cells were further diluted by taking 25 μL of fungal cells and adding them to 10 mL of RPMI 1640 medium before adding 100 μL to plate (200 μL total volume). The plates were incubated at 35° C. for 48 h. Visual inspection of the wells for no growth was used to determine the MIC. All compounds were tested in duplicate (TABLES 6 and 7).
Checkerboard assays were done as previously described to determine the fractional inhibitory concentration index (FICI). 2-fold dilutions of the azole drug were made in RPMI 1640 medium lengthwise along the plate. For the antihistamine, 2-fold serial dilutions were made in sterile tubes with RPMI 1640 medium, then aliquoted into the plate. […] The maximal amount was used in the checkerboard assays if complete inhibition was not observed in the MIC assays. Cultures were started by picking a colony from a plate and growing in YEPD medium overnight at 35° C. with shaking at 200 rpm. Cultures were diluted in RPMI 1640 medium to an OD600 between 0.12 and 0.15 (˜1×10^6 cells/mL). Cells were then further diluted by taking 25 μL of cell suspension and adding to 10 mL of RPMI 1640 medium. After the drugs were added to the plate with 100 μL of medium, 100 μL of fungal cells were added. Plates were incubated at 35° C. for 48 h and visual inspection was used to determine wells with no growth. All experiments were carried out in duplicate. The FICI was calculated based on the formula below. The combinational effect of the 2 tested compounds were considered synergistic (SYN) if FICI≤0.5, additive (ADD) if 0.5<FICI≤4, and antagonistic if FICI>4 (TABLES 6-9).

| Structure (SMILES) | cases of SYN | cases of pSYN |
| --- | --- | --- |
| CC(C)(C)c1ccc(C(O)CCCN2CCC(C(O)(c3ccccc3)c3ccccc3)CC2)cc1 (stereo not shown) [TERF, terfenadine] | 41 | 22 |
| CC(C)(C)c1ccc(C(=O)CCCN2CCC(OC(c3ccccc3)c3ccccc3)CC2)cc1 [EBA, ebastine] | 14 | 9 |
